Measured values from several laboratories, pooled; numbers as filed in NIAID ChemDB.

Shared fields: whole-cell or culture tests; species: Mycobacterium tuberculosis

ECn is the concentration giving n% inhibition of infection, replication or growth.

SMILES | read by | endpoint | strain | setting | tested at | mutations | cells | result
Nc1cc2c(=O)c3cc(Cl)cc(Cl)c3[nH]c2c2c1C(=O)c1ccccc1C2=O | BACTEC | MIC bound | H37Rv | - | - | - | - | >12.5 µg/mL
NC(=O)c1cncc(-n2cncn2)n1 | - | MIC | H37Rv | - | - | - | - | 1000 µg/mL
CC(C)(C)c1cc(C(C)(C)C)c2oc(-c3ccccn3)nc2c1 | BACTEC | MIC | H37Rv | - | - | - | - | >6.25 µg/mL
O=C(CCCCC(=O)N/N=C/c1cccc2ccccc12)N/N=C/c1cccc2ccccc12 | BACTEC | MIC | H37Rv | - | - | - | - | ≥12.5 µg/mL
CCNC(=O)c1c(NC(=O)c2c(F)c(F)c(F)c(F)c2F)sc2c1CCN(CC)C2 | low oxygen | MIC | - | - | - | - | - | 130 µM
CC1=C\[C@H](O)CC(=O)Cc2nc(co2)C(=O)N2CCC=C2C(=O)O[C@@H](C(C)C)[C@@H](C)/C=C/C(=O)NC\C=C\1 | BACTEC | inhibition | H37Rv | - | 12.8 µg/mL | - | - | 19%
NC(=S)c1cncc(-n2ccnc2)n1 | - | MIC | Ethionamide-resistant | - | - | - | - | 500 µg/mL
CC(=O)Nn1c(C)nc2scc(-c3ccco3)c2c1=O | - | MIC | CNCTC MY331/88 | - | - | - | - | 200 µM
O=C1CSC(c2ccc(Cl)c(Cl)c2)N1c1nncs1 | BACTEC | inhibition | H37Rv | - | 12.5 µg/mL | - | - | 20%
O=C(c1ccncc1)N1N=C(c2cccs2)CC1(O)C(F)(F)F | - | MIC | RGH102 | - | - | - | - | >293 µM
NNC(=O)c1ccncc1 | broth dilution | MIC | H37Rv (ATCC 25618) | - | - | - | - | 0.06 µg/mL
NC(=O)c1cnccn1 | - | MIC | Isolate 98-32 | - | - | - | - | 900 µg/mL
Cc1nc2scc(-c3ccco3)c2c(=O)n1NC(=O)C1CCCCC1 | - | MIC | CNCTC MY331/88 | - | - | - | - | 203 µM
Cc1cc(C)c2c(n1)S(=O)(=O)N(CC(=O)c1ccccn1)C2=O | - | inhibition | H37Rv | - | 12.5 µg/mL | - | - | 1%
CCOC(=O)c1c(NC(=O)c2c(F)c(F)c(F)c(F)c2F)sc2c1CCOC2 | turbidity | EC50 | H37Rv | - | - | gyrA mutant (D94N) | - | 0.17 µM
Cc1nc2scc(-c3ccco3)c2c(=O)n1NC(=O)C1CC1 | - | MIC | CNCTC MY331/88 | - | - | - | - | 209 µM
CC1=CC(=O)c2c(O)cccc2C1=O | - | MIC | MTCS1 | - | - | - | - | >39.06 µg/mL
C=CCN1C(=O)c2c(C)cc(C)nc2S1(=O)=O | - | MIC | H37Rv | - | - | - | - | >12.5 µg/mL
CCN1CCc2c(sc(NC(=O)c3c(F)c(F)c(F)c(F)c3F)c2C(=O)NC)C1 | low oxygen | EC90 | - | - | - | - | - | 9.1 µM
COc1cc2c(cc1O)CC[n+]1cc3c(OC)c(OC)ccc3cc1-2 | BACTEC | MIC bound | H37Rv | - | - | - | - | >12.8 µg/mL
CO[C@H]1/C=C/O[C@@]2(C)Oc3c(C)c(O)c4c(O)c(c(/C=N/N5CCN(C)CC5)c(O)c4c3C2=O)NC(=O)/C(C)=C\C=C\[C@H](C)[C@H](O)[C@@H](C)[C@@H](O)[C@@H](C)[C@H](OC(C)=O)[C@@H]1C | resazurin | MIC | FQ-R1 | - | - | gyrB mutant fluoroquinolone resistant | - | 0.017 µg/mL
CC(C)(C)c1cc(C(C)(C)C)c2oc(-c3ccccc3Br)nc2c1 | BACTEC | inhibition | H37Rv | - | 6.25 µg/mL | - | - | 99%
COc1ccccc1NC(=O)CC(=O)N1N=C(c2ccccc2)C(N=Nc2ccc(Cl)cc2)C1=O | BACTEC | MIC | H37Rv | - | - | - | - | ≥12.5 µg/mL
O=C1NC(NNC(=O)c2ccncc2)=N/C1=C\c1ccccc1Cl | - | MIC | ATCC 35822 (isoniazid-resistant) | - | - | - | - | 50 µg/mL
CSc1ccc(Cc2c(C)c(C#N)c3[nH]c4ccccc4n3c2=O)cc1 | resazurin | MIC90 | H37Rv | - | - | - | - | 0.5 µg/mL
O=C1NC(NNC(=O)c2ccncc2)=N/C1=C\c1ccc(Cl)cc1 | - | MIC | ATCC 35822 (isoniazid-resistant) | - | - | - | - | 100 µg/mL
Cc1nc2scc(-c3ccco3)c2c(=O)n1NC(=O)c1ccccc1 | - | MIC | CNCTC MY331/88 | - | - | - | - | 99 µM
O=c1[nH]c2c([N+](=O)[O-])cccc2c(O)c1N=Nc1cccc(Cl)c1 | resazurin | inhibition | H37Rv | - | 6.25 µg/mL | - | - | 82%
Nc1cnccc1NCCN1CCN(c2ccccc2)CC1 | resazurin | MIC bound | H37Rv | - | - | - | - | >6.25 µg/mL
CCCCCC1(C)Cn2cc([N+](=O)[O-])nc2O1 | - | MIC | H37Rv-T3 (PA-824-resistant) | - | - | - | - | >100 µM
CC1=NN(C(=O)c2ccncc2)C(O)(C(F)(F)F)C1 | - | MIC | H37Rv | - | - | - | - | 5.71 µM
NNC(=O)c1ccncc1 | resazurin | MIC | CF74 | - | - | - | - | >25 µg/mL
Cc1cc(C)c2c(n1)S(=O)(=O)N(CCO)C2=O | - | EC50 | H37Rv | - | - | - | - | >12.5 µg/mL
CCOC(=O)c1c(NC(=O)c2c(F)c(F)c(F)c(F)c2F)sc2c1CCNC2=O | turbidity | MIC | ATCC35838 | - | - | - | - | 2 µM
CC1(C)COC(c2cc(Br)ccc2Br)=N1 | BACTEC | inhibition | H37Rv | - | 12.5 µg/mL | - | - | -9%
O=C1NC(NNC(=O)c2ccncc2)=N/C1=C\c1cccc(Cl)c1 | - | MIC | Ciprofloxacin-resistant | - | - | - | - | ≤0.39 µg/mL
Cc1cc(C)cc(N=Nc2c(O)c3c(ccc4ccccc43)oc2=O)c1 | resazurin | MIC | H37Rv | - | - | - | - | <6.25 µg/mL
COC12CC(=O)C(C(C)=O)=C(O)C1(C)c1c(O)c(C)c(O)c(C(C)=O)c1O2 | BACTEC | MIC bound | H37Rv | - | - | - | - | ≤12.5 µg/mL
CCCCCCc1ccc(Oc2ccccc2)c(O)c1 | - | MIC99 | H37Rv pMH29:inhA | - | - | - | - | 18.8 µg/mL
Cc1ccc(C2=NN(C(=O)c3ccncc3)C(O)(C(F)(F)F)C2)cc1 | - | MIC | RGH104 | - | - | - | - | 4.47 µM
Cc1nc2scc(-c3ccco3)c2c(=O)n1NC(=O)c1cccs1 | - | MIC | CNCTC MY331/88 | - | - | - | - | 106 µM
NC(=S)c1cncc(-n2cncn2)n1 | - | MIC | H37Rv | - | - | - | - | 250 µg/mL
COc1cc(OC)c2c(c1)OC(c1cc(OC)c(OC)c(OC)c1)CC2=O | - | inhibition | H37Rv | - | 12.5 µg/mL | - | - | 0%
O=C([C@@H](O)CO)N1CC=C(c2c(F)cc(N3C[C@H](COc4ccon4)OC3=O)cc2F)CC1 | - | MIC | AZD5847-resistant 8.8 | - | - | T460C Cys154Arg | - | 16 µg/mL
NC(=O)c1cnccn1 | - | EC50 | TB186 | 7 d | - | - | - | <800 µg/mL
NNC(=O)c1ccncc1 | - | MIC99 | TN587 | - | - | - | - | 2.4 µg/mL
O=c1cc(-c2ccc(O)cc2-c2c(O)cc3oc(-c4ccc(O)cc4)cc(=O)c3c2O)oc2cc(O)cc(O)c12 | - | inhibition | - | - | 12.5 µg/mL | - | - | 1%
CC1CCCCN1c1cncc(C(=O)NN)n1 | - | MIC | SP 607 | - | - | - | - | 500 µg/mL
CC(=O)N=C1N(/C=C2\C(=O)Oc3ccccc3C2=O)C(=O)/C(=C/c2ccc(Cl)cc2Cl)N1C | BACTEC | MIC bound | H37Rv | - | - | - | - | >12.5 µg/mL
Cc1ccc(/C=N/n2c(C)nc3scc(-c4ccco4)c3c2=O)cc1 | - | MIC | CNCTC MY331/88 | - | - | - | - | 58 µM
Cc1c(Cc2ccc(F)cc2)c(=O)n2c([nH]c3ccccc32)c1C#N | resazurin | MIC90 | H37Rv | - | - | - | - | 2 µg/mL
CO[C@H]1/C=C/O[C@@]2(C)Oc3c(C)c(O)c4c(O)c(c5c(c4c3C2=O)NC2(CCN(CC(C)C)CC2)N=5)=NC(=O)/C(C)=C\C=C\[C@H](C)[C@H](O)[C@@H](C)[C@@H](O)[C@@H](C)[C@H](OC(C)=O)[C@@H]1C | - | MIC | Strain 80 (N518 deletion) | - | - | - | - | 0.063 µg/mL
NC(=O)c1cnccn1 | - | MIC | ATCC 35828 | - | - | - | - | 2048 µg/mL
COc1ccc(Br)c2c1C(=O)CC(c1ccccc1)O2 | - | EC50 | - | - | - | - | - | <12.5 µg/mL
O=c1oc2ccc(-c3ccccc3)cc2c(O)c1N=Nc1ccccc1[N+](=O)[O-] | resazurin | MIC | H37Rv | - | - | - | - | <6.25 µg/mL
CN1CCC23c4c5cc(-c6cc7c8c(c6O)OC6C(O)C=CC9C(C7)N(C)CCC896)c(O)c4OC2C(O)C=CC3C1C5.O=C(O)C(O)C(O)C(=O)O | BACTEC | MIC | H37Rv | - | - | - | - | ≥128 µg/mL
C[C@H]1COc2c(N3CCN(C)CC3)c(F)cc3c(=O)c(C(=O)O)cn1c23 | resazurin | MIC | INH-R1 | - | - | katG mutant isoniazid resistant | - | 0.44 µg/mL
CC(=O)c1c(C)[nH]c(C(=O)N/N=C/c2ccc([N+](=O)[O-])cc2)c1C | resazurin | inhibition | H37Rv | - | 6.25 µg/mL | - | - | 32%
CN1c2ccccc2CCC1CCc1ccc2c(c1)OCO2 | - | MIC | MT4 | - | - | - | - | >100 µg/mL
COc1ccc(Cc2c(C)c(C#N)c3[nH]c4ccccc4n3c2=O)cc1 | resazurin | MIC90 | V4207 | - | - | - | - | 0.5–2 µg/mL
O=[N+]([O-])c1cn2c(n1)OC[C@@H](OCc1ccc(OC(F)(F)F)cc1)C2 | - | MIC | H37Rv-T2 (PA-824-resistant) | - | - | - | - | >100 µM
CC(C)(C)c1cc(C(C)(C)C)c2oc(-c3ccccc3[N+](=O)[O-])nc2c1 | BACTEC | inhibition | H37Rv | - | 6.25 µg/mL | - | - | <90%
CC(=O)C1=C(O)c2c(C)cc(C)nc2S(=O)(=O)N1C | - | inhibition | H37Rv | - | 12.5 µg/mL | - | - | 37%
OC(c1cc(-c2ccc(Cl)cc2)nc2c(Cl)cccc12)C1CCCCN1 | - | MIC | H37Rv | - | - | - | VERO | 0.78 µg/mL
O=c1oc2ccc3ccccc3c2c(O)c1N=Nc1ccc(Cl)cc1 | resazurin | inhibition | H37Rv | - | 6.25 µg/mL | - | - | 88%
CC[N+](CC)=c1ccc2nc3c(cc(NCc4ccccc4)c4ccccc43)oc-2c1 | - | MIC | H37Rv | - | - | - | - | 0.03 µg/mL
CCN1CCc2c(sc(NC(=O)c3c(F)c(F)c(F)c(F)c3F)c2C#N)C1 | resazurin | MIC | H37Rv | - | - | - | - | 9.8 µM
Cc1cc(C)c2c(n1)S(=O)(=O)N/C(=C(/O)c1ccccc1)C2=O | - | MIC | H37Rv | - | - | - | - | >12.5 µg/mL
NNC(=O)c1ccncc1 | resazurin | MIC | H37Ra | - | - | - | - | 0.0062–0.012 µg/mL
COc1ccc(N=NC2C(=O)N(C(=O)c3ccncc3)N=C2C)cc1 | BACTEC | inhibition | H37Rv | - | 12.8 µg/mL | - | - | -7%
CC(=O)NC[C@H]1CN(c2ccc(N3CCN(c4ccc([N+](=O)[O-])s4)CC3)c(F)c2)C(=O)O1 | - | MIC | PC | - | - | - | - | 0.25 µg/mL
O=C(c1ccncc1)N1N=CCC1(O)C(F)(F)F | - | MIC | RGH101 | - | - | - | - | 12 µM
O=C1OC(C(O)CO)C(=N\Nc2ccc(Cl)cc2)/C1=N\Nc1ccccc1 | BACTEC | inhibition | H37Rv | - | 12.5 µg/mL | - | - | 58%
CCCCCc1cc(OC)c2ccccc2n1 | - | MIC | MT2 | - | - | - | - | 12.5 µg/mL
CN[C@@H]1[C@H](O[C@H]2[C@H](O[C@H]3[C@H](O)[C@@H](O)[C@H](N=C(N)N)[C@@H](O)[C@@H]3N=C(N)N)O[C@@H](C)[C@]2(O)C=O)O[C@@H](CO)[C@H](O)[C@H]1O | - | MIC | TN3605 (W1) | - | - | - | - | >2 µg/mL
C/C=N/n1c(C)nc2scc(-c3ccco3)c2c1=O | - | MIC | CNCTC MY331/88 | - | - | - | - | 62 µM
O=C(/C=C/c1ccc([O-])c(C[O-])c1)c1cccc(O)c1 | - | EC50 | H37Rv | - | - | - | - | <12.5 µg/mL
O=C1NC(Nc2ccc(Cl)cc2)=N/C1=C\c1ccccc1Cl | - | inhibition | H37Rv | - | 12.5 µg/mL | - | - | 99%
CC(C)CC1NC(=O)C(C(C)C)NC(=O)CC(C)COC(=O)C(CC(C)C)N(C)C(=O)C(C(C)C)NC(=O)C(C(C)C)OC1=O | BACTEC | MIC | H37Rv | - | - | - | - | ≥12.8 µg/mL
N#Cc1c(NC(=O)c2c(F)c(F)c(F)c(F)c2F)sc2c1CCOC2 | turbidity | MIC | H37Rv | - | - | gyrA mutant (D94N) | - | 13 µM
CO[C@@H]1[C@H](O)[C@@H](C)O[C@@H](OC[C@H]2[C@@H]3O[C@H]3/C=C/C(=O)[C@@](C)(O)C[C@H](C)[C@@H](O[C@@H]3O[C@H](C)C[C@H](OC)[C@H]3O)[C@@H](C)/C=C/C(=O)O[C@@H]2C)[C@@H]1OC | BACTEC | MIC bound | H37Rv | - | - | - | - | >12.8 µg/mL
CC(C)(C)c1cc(C(C)(C)C)c2oc(-c3c[nH]c4ccccc34)nc2c1 | BACTEC | inhibition | H37Rv | - | 6.25 µg/mL | - | - | <90%
O=C1OCCOCCOCCOCCOC(=O)C1c1ccccc1 | BACTEC | inhibition | H37Rv | - | 12.5 µg/mL | - | - | 7%
CCOC(=O)c1c(-c2ccco2)csc1NC(C)=O | - | MIC | CNCTC MY331/88 | - | - | - | - | >1000 µM
CCCCCCCCCC(=O)OCCN1CCN(CCCN2c3ccccc3Sc3ccc(C(F)(F)F)cc32)CC1 | BACTEC | MIC bound | H37Rv | - | - | - | - | ≤12.5 µg/mL
CCOC(=O)c1c(NC(C)=O)sc2c1CCN(C(=O)OCC)C2 | resazurin | MIC | H37Rv | - | - | - | - | >100 µg/mL
COc1cc(C(=O)N=Nc2c(O)[nH]c3ccc(Br)cc23)cc(OC)c1OC | BACTEC | inhibition | H37Rv | - | 12.5 µg/mL | - | - | -18%
CC1COc2c(N3CCN(C)CC3)c(F)cc3c(=O)c(C(=O)O)cn1c23 | broth dilution | MIC | Rifampicin-resistant 19000 | - | - | - | - | 0.25–0.5 µg/mL

MIC50, MIC90 and the like: level of inhibition, or share of isolates inhibited. An empty or dashed field is not shown. MIC bound comes from a single tested concentration. Neighbouring rows are from separate reports. Percent inhibition refers to the dose given; in toxicity tests it is the harm to the cells. Two numbers with a dash give a range or band.